From paper PMC8601423 (PLoS ONE, 2021) come the findings set out here.

The Kd is the concentration at which binding is half-saturated.

For this test, the target named is human ACE2-Fc (Q18-S740) recombinant protein (human, UniProt Q9BYF1 18-740). As to the kind of experiment: fluorescence polarisation.

B1: RBM1 (C-FITC) (peptide)
peptide: SKVGGNYNYLYRLFRKK
On to B1, for which the Kd is 207 nM.
